Measured values from several laboratories, pooled; numbers as filed in NIAID ChemDB.

Common to all: tests in culture; organism: Candida albicans; measure: MIC

Two numbers with a dash give a range or band. Blank or dashed fields: not listed here. Conditions beyond the fields shown may differ between rows.

smiles,strain or isolate,read by,value
Fc1ccc2c(c1)ncn2-c1ccc(-c2nc3ccccc3[nH]2)cc1,ATCC 10231,broth dilution,12.5 µg/mL
COc1ccc(-c2cc(-c3cc(OC)c(OC)c(OC)c3)nc(NN)n2)cc1OC,DSM 70014,-,50 µg/mL
O=C(Cc1ccccc1)Nc1ccc2oc(-c3ccccc3)nc2c1,ATCC 10145,-,50 µg/mL
CCOc1ccc(O)c(C(=O)NN)c1,Clinical isolates,-,125–250 µg/mL
O=C(O)c1cccc(C(=O)Nc2ccccc2)n1,-,-,37.5 µg/mL
COc1ccc(C2=CC(c3cc(OC)c(OC)c(OC)c3)NC(=S)N2)cc1OC,DSM 70014,-,50 µg/mL
CCC(=O)NNC(=S)Nn1c(-c2ccccc2)nc2ccccc2c1=O,ATCC 753,-,100 µg/mL
Cc1c(O)cccc1C(=O)N[C@@H](CSc1ccccc1)[C@H](O)CN1C[C@H]2CCCC[C@H]2C[C@H]1C(=O)NC(C)(C)C,90028,-,>64 µg/mL
N/C(=N\NC(CC(=O)c1ccc(-c2ccccc2)cc1)c1cccnc1)c1ccccn1,C873,-,>160 µg/mL
O=C(Cc1ccc(Br)cc1)Nc1ccc2oc(-c3ccccc3)nc2c1,ATCC 10145,-,25 µg/mL
COCCOCCOCCOCCOCCOCCNC(=O)[C@H]1[C@@H]2C[C@@H](O[C@@H]3O[C@H](C)[C@@H](O)[C@H](N)[C@@H]3O)/C=C/C=C/C=C/C=C/C=C/C=C/C=C/[C@H](C)[C@@H](O)[C@H](C)[C@H](C)OC(=O)C[C@H](O)C[C@H](O)[C@@H](O)CC[C@H](O)C[C@H](O)C[C@](O)(C[C@@H]1O)O2,3 strains,-,3.2–6.4 µg/mL
O=C(O)c1ccc2c(c1)ncn2-c1ccc(-c2nc3ccccc3[nH]2)cc1,ATCC 10231,broth dilution,12.5 µg/mL
Clc1ccc(CCC(Cn2ccnc2)Sc2c(Cl)cccc2Cl)cc1,ATCC 10231,-,30 µg/mL
O=[N+]([O-])c1ccc2c(c1)ncn2-c1ccc(-c2nc3ccccc3[nH]2)cc1,ATCC 10231,broth dilution,12.5 µg/mL
CN1C(=O)CSc2cc(C(Cn3cncn3)OCc3ccc(Cl)cc3Cl)ccc21,CA6,-,>250 µg/mL
C[C@H]1[C@H](O)[C@@H](C)/C=C/C=C/C=C/C=C/C=C/C=C/C=C/[C@H](O[C@@H]2O[C@H](C)[C@@H](O)[C@H](N)[C@@H]2O)C[C@@H]2O[C@](O)(C[C@@H](O)C[C@@H](O)CC[C@H](O)[C@@H](O)C[C@@H](O)CC(=O)O[C@H]1C)C[C@H](O)[C@H]2C(=O)O,-,broth dilution,2.07 µg/mL
CCCCCCOc1ccc(O)c(C(=O)NN)c1,Clinical isolates,-,125–250 µg/mL
C/C1=C\C=C\C(C)C(C(C)CCC/C=C/CCCNC(N)=O)OC(=O)/C=C\C=C\C(C)C(O)CC(O)C(C)C(O)CCC(C)C(O)CC2(O)OC(CC(OC(=O)CC(=O)O)CC(O)CC(O)CC1O)CC(O)C2O,ATCC 10231,-,>100 µg/mL
CC(C)=CCC/C(C)=C/CN(C)C(=N)N(C)C/C=C(\C)CCC=C(C)C,ATCC 90028,-,250 µg/mL
O=C(Nc1ccc(Br)cc1)c1cccc(C(=O)Nc2ccc(Br)cc2)n1,-,-,75 µg/mL
COc1ccc(C(=O)/C=C/c2cc(OC)c(OC)c(OC)c2)cc1OC,DSM 70014,-,100 µg/mL
Cc1ccccc1Nc1nnc(Cn2c(-c3ccc(Cl)cc3)nc3ccccc32)s1,-,-,12.5 µg/mL
O=C(c1ccccc1)c1ccc(Br)cc1OCc1n[nH]c(=S)o1,-,-,3 µM
Cc1cc2c(cc1Cl)ncn2-c1ccc(-c2nc3ccccc3[nH]2)cc1,ATCC 10231,broth dilution,6.25 µg/mL
CCCC[C@@H](C)/C=C(C)/C=C(\C)C(=O)N/C(=C/[C@@](C)(O)/C=C/C=C/C=C/C(=O)NC1=C(O)CCC1=O)C(=O)[C@@H]1CO1,3,broth dilution,13 µM
N/C(=N\NC(CC(=O)c1ccc(-c2ccccc2)cc1)c1ccccn1)c1ccccn1,C873,-,>160 µg/mL
C[C@H]1[C@H](O)[C@@H](C)/C=C/C=C/C=C/C=C/C=C/C=C/C=C/[C@H](O[C@@H]2O[C@H](C)[C@@H](O)[C@H](N)[C@@H]2O)C[C@@H]2O[C@](O)(C[C@@H](O)C[C@@H](O)CC[C@H](O)[C@@H](O)C[C@@H](O)CC(=O)O[C@H]1C)C[C@H](O)[C@H]2C(=O)O,ATCC 10231,broth dilution,0.5 µM
CN1C(=O)CSc2cc(C(O)Cn3ccnc3)ccc21,CA6,-,>250 µg/mL
COc1cc(OC(C)C)ccc1C(=O)O,Clinical isolates,-,125–250 µg/mL
Clc1ccc(-c2nc3ccccc3n2Cc2nnc(Nc3ccccc3)s2)cc1,-,-,12.5 µg/mL
CCc1ccc(-c2nc3cc(NC(=O)Cc4ccc(Cl)cc4)ccc3o2)cc1,ATCC 10145,-,50 µg/mL
Cn1c(=O)cc(Oc2nc(Nc3ccc(C#N)cc3)nc(Nc3nc4ccccc4s3)n2)c2ccccc21,MTCC 183,agar,500 µg/mL
Cc1ccc(C(=O)c2cc(C)ccc2OCc2nnc3n2N=C(c2ccccc2)CS3)cc1,-,-,11.5 µM
N/C(=N\NC(CC(=O)c1ccc(Cl)cc1)c1cccnc1)c1ccccn1,C873,-,80 µg/mL
COc1ccc(C2=NN(C=O)C(c3cc(OC)c(OC)c(OC)c3)C2)cc1OC,DSM 70014,-,50 µg/mL
Fc1cccc(Nc2nnc(Cn3c(-c4ccc(Cl)cc4)nc4ccccc43)s2)c1,-,-,50 µg/mL
CCc1ccc(-c2nc3cc(NC(=O)CN4CCNCC4)ccc3o2)cc1,ATCC 10145,-,50 µg/mL
Cn1c(=O)cc(Oc2nc(Nc3ccc(C#N)cc3)nc(Sc3nnc(-c4ccncc4)o3)n2)c2ccccc21,MTCC 183,agar,200 µg/mL
Clc1ccc(Nc2nnc(Cn3c(-c4ccc(Cl)cc4)nc4ccccc43)s2)cc1,-,-,25 µg/mL
Nn1c(COc2ccc(Cl)cc2C(=O)c2ccccc2)n[nH]c1=S,-,-,2.5 µM
CS(C)=O,MTCC 183,-,>100 µg/mL
COc1ccc(C(=O)c2cc(C)ccc2OCc2n[nH]c(=S)n2N)cc1,-,-,7 µM
N/C(=N\NC(CC(=O)c1ccc(Cl)c(Cl)c1)c1cccnc1)c1ccccn1,C873,-,80 µg/mL
CCCCCOc1ccc(C(=O)O)c(OC)c1,Clinical isolates,-,125–250 µg/mL
CN1C(=O)CSc2cc(C(Cn3ccnc3)OCc3ccc(Cl)cc3)ccc21,CA6,-,46 µg/mL
Cc1ccc(C(=O)NNC(=S)Nn2c(-c3ccccc3)nc3ccccc3c2=O)cc1,ATCC 753,-,100 µg/mL
Clc1ccc(-c2nc3ccccc3n2Cc2nnc(Nc3ccccc3Cl)s2)cc1,-,-,25 µg/mL
CCc1ccc(-c2nc3cc(NC(=O)CN4CCOCC4)ccc3o2)cc1,ATCC 10145,-,25 µg/mL
COc1ccc(C2=NN(c3ccc([N+](=O)[O-])cc3)C(c3cc(OC)c(OC)c(OC)c3)C2)cc1OC,DSM 70014,-,100 µg/mL
CN1CCN(CC(=O)Nc2ccc3oc(-c4ccccc4)nc3c2)CC1,ATCC 10145,-,50 µg/mL
N/C(=N\NC(CC(=O)c1cccc(Cl)c1)c1cccnc1)c1ccccn1,C873,-,80 µg/mL
O=C(c1ccccc1)c1cc(Cl)ccc1OCc1n[nH]c(=S)o1,-,-,6 µM
CN1CCN(CC(=O)Nc2ccc3oc(-c4ccc(C(C)(C)C)cc4)nc3c2)CC1,ATCC 10145,-,50 µg/mL
Cc1cc2ncn(-c3ccc(-c4nc5ccccc5[nH]4)cc3)c2cc1C,ATCC 10231,broth dilution,6.25 µg/mL
CCCOc1ccc(C(=O)NN)c(O)c1,Clinical isolates,-,125–250 µg/mL
CC(C)=CCN=C(NCC=C(C)C)NCC=C(C)C,ATCC 90028,-,250 µg/mL
Cn1c(=O)cc(Oc2nc(Nc3ccc(C#N)cc3)nc(Nc3nc4ccc([N+](=O)[O-])cc4s3)n2)c2ccccc21,MTCC 183,agar,50 µg/mL
CC1(c2ccccc2)CC(C(=O)c2cc3ccccc3o2)C1,ATCC 10231,-,0.625 µg/mL
N/C(=N\NC(CC(=O)c1ccccc1)c1cccnc1)c1ccccn1,C873,-,>160 µg/mL
Clc1ccc(-c2nc3ccccc3n2Cc2nnc(Nc3ccccc3Br)s2)cc1,-,-,12.5 µg/mL
CC1=[N+](C)N(c2ccccc2)C(=O)C1Nc1nc(Nc2ccc(C#N)cc2)nc(Oc2cc(=O)n(C)c3ccccc23)n1,MTCC 183,agar,500 µg/mL
CN1C(=O)CSc2cc(C(Cn3cncn3)OCc3ccc(Cl)cc3)ccc21,CA6,-,>250 µg/mL
Cn1c(=O)cc(Oc2nc(Nc3ccc(C#N)cc3)nc(Oc3cc(=O)oc4ccccc34)n2)c2ccccc21,MTCC 183,agar,250 µg/mL
N/C(=N\NC(CC(=O)c1ccccc1)c1ccccn1)c1ccccn1,C873,-,20 µg/mL

Repeating the final 5 entries:

{"smiles": "Clc1ccc(-c2nc3ccccc3n2Cc2nnc(Nc3ccccc3Br)s2)cc1", "value": "12.5 µg/mL"}
{"smiles": "CC1=[N+](C)N(c2ccccc2)C(=O)C1Nc1nc(Nc2ccc(C#N)cc2)nc(Oc2cc(=O)n(C)c3ccccc23)n1", "strain or isolate": "MTCC 183", "read by": "agar", "value": "500 µg/mL"}
{"smiles": "CN1C(=O)CSc2cc(C(Cn3cncn3)OCc3ccc(Cl)cc3)ccc21", "strain or isolate": "CA6", "value": ">250 µg/mL"}
{"smiles": "Cn1c(=O)cc(Oc2nc(Nc3ccc(C#N)cc3)nc(Oc3cc(=O)oc4ccccc34)n2)c2ccccc21", "strain or isolate": "MTCC 183", "read by": "agar", "value": "250 µg/mL"}
{"smiles": "N/C(=N\\NC(CC(=O)c1ccccc1)c1ccccn1)c1ccccn1", "strain or isolate": "C873", "value": "20 µg/mL"}